Pooled drug test results. Numbers come from NIAID ChemDB, via PubChem.

Common to all: tests in culture; organism: HIV-1

a–b is a range or a potency band.

SMILES | strain or isolate | method | cell line | mutations | endpoint | value
CC(=O)OCCOCn1cc(Cn2cnc3c(N)ncnc32)nn1 | IIIB | cytopathic effect | MT-4 |  | EC50 | >100 µg/mL
CC(C)C1=C2[C@H]3CC[C@@H]4[C@@]5(C)CC[C@H](OC(=O)[C@H]6C[C@@H](C(=O)O)C6(C)C)C(C)(C)[C@@H]5CC[C@@]4(C)[C@]3(C)CC[C@@]2([C@@H](O)CNCc2ccc(N3CCOCC3)cc2)CC1=O | 92HT599 | p24 / ELISA | MT-2 |  | EC50 | <1 µM
O=C1Nc2ccc(F)c(F)c2[C@@](C#CC2CC2)(C(F)(F)F)N1 |  |  |  | RT-P225H | EC90 | <0.012 µM
Nc1ncnc2c1ncn2[C@H]1C[C@](N)(CO)CO1 |  |  | MT-4 |  | EC50 | >100 µg/mL
CC(C)(C)C(=O)OCOP(=O)(CC[C@H]1O[C@@H](n2ccc(=O)[nH]c2=O)[C@](C)(F)[C@@H]1O)OCOC(=O)C(C)(C)C | LAI | PCR | PBMC |  | EC90 | >100 µM
Nc1ncnc2c1ncn2[C@@H]1O[C@H](COP(=O)([O-])O)[C@@H](O)[C@H]1OP(=O)([O-])OC[C@@H]1C[C@@H](OP(=O)([O-])OC[C@@H]2C[C@@H](O)[C@H](n3cnc4c(N)ncnc43)O2)[C@H](n2cnc3c(N)ncnc32)O1 | IIIB | p24 | H9 |  | EC50 | 1 µM
CCCOC(=O)c1cc(O)c(O)c(O)c1 |  | p24 / ELISA | PBMC |  | EC95 | 0.005–0.01 µg/mL
CCCC1=C(C(=O)Nc2ccc(Cl)c(C(=O)OCC)c2)SCCO1 | IIIB | syncytia | CEM |  | EC50 | 0.15 µg/mL
Nc1ncnc2c1ncn2[C@@H]1C[C@](N)(CO)CO1 |  |  | MT-4 |  | EC50 | >100 µg/mL
O=c1[nH]c(=O)n([C@@H]2C=C(CO)CO2)cc1Br |  |  | MT-4 |  | EC50 | >100 µg/mL
CCCCCCCCCCCCCCCCCCCCCC(=O)OC[C@H](CO[C@]1(C(=O)O)C[C@H](OS(=O)(=O)O)[C@@H](OS(=O)(=O)O)[C@H]([C@H](OS(=O)(=O)O)[C@@H](COS(=O)(=O)O)OS(=O)(=O)O)O1)OC(=O)CCCCCCCCCCCCCCCCCCCCC | IIIB | p24 | H9 |  | EC50 | 4 µM
[N-]=[N+]=N[C@@]1(CO)COC(n2ccc(N)nc2=O)C1 |  |  | MT-4 |  | EC50 | >100 µg/mL
C#CCn1cnc2c(=O)[nH]c(NC(C)=O)nc21 | IIIB | cytopathic effect | MT-4 |  | EC50 | >100 µg/mL
COC(=O)CCCCCCCCCCC(=O)O |  | cytopathic effect | CEM |  | EC50 | >10 µg/mL
CCCOC(=O)c1ccc(C)c(NC(=O)C2=C(C)OCCS2)c1 | TIBO-resistant (RT L100I) | syncytia | CEM | RT-L100I | EC50 | >10 µg/mL
COC(=O)[C@H](C)NP(=O)(OC[C@@H]1C=C[C@H](n2cc(C)c(=O)[nH]c2=O)O1)Oc1ccccc1 | IIIB | cytopathic effect / MTT | MT-4 |  | EC50 | 0.066 µM
OCCC#Cc1nc(-c2ccc(F)cc2)c(-c2ccncc2)n1CCCc1ccccc1 | BaL | p24 | PBMC |  | EC50 | <1 µM
NC(=O)c1cn([C@H]2CS[C@H](CO)O2)cn1 | LAV | RT activity | PBMC |  | EC50 | >100 µM
C#CCn1cc(Br)c(=O)[nH]c1=O | IIIB | cytopathic effect | MT-4 |  | EC50 | >100 µg/mL
Nc1ccn(CC(F)(F)C(F)(F)C(F)(F)CO)c(=O)n1 | LAI | RT activity | PBMC |  | EC50 | >100 µM
CC(C)C1=C2[C@H]3CC[C@@H]4[C@@]5(C)CC[C@H](OC(=O)[C@H]6C[C@@H](C(=O)O)C6(C)C)C(C)(C)[C@@H]5CC[C@@]4(C)[C@]3(C)CC[C@@]2(CCNCC2CCCC2)CC1=O | 92HT599 | p24 / ELISA | MT-2 |  | EC50 | <1 µM
CCCCOC(=O)c1cc(O)c(O)c(O)c1 |  | p24 / ELISA | PBMC |  | EC90 | 0.005–0.01 µg/mL
CCOC(=O)[C@H](C)NP(=O)(OCC(F)(F)C(F)(F)Cn1ccc(N)nc1=O)Oc1ccccc1 | LAI | RT activity | PBMC |  | EC50 | >100 µM
Cc1nnc(CN(CCN(C)C)CC[C@@]23CC[C@]4(C)[C@H](CC[C@@H]5[C@@]6(C)CC[C@H](OC(=O)[C@H]7C[C@@H](C(=O)O)C7(C)C)C(C)(C)[C@@H]6CC[C@]54C)C2=C(C(C)C)C(=O)C3)o1 | 92HT599 | p24 / ELISA | MT-2 |  | EC50 | <1 µM
CC1=C(C(=O)N(C)c2ccc(Cl)c(C(=O)OC(C)C)c2)SCCO1 | TIBO-resistant (RT L100I) | syncytia | CEM | RT-L100I | EC50 | >10 µg/mL
CCCCCCCC(=O)NCCCCC(=O)O |  | cytopathic effect | CEM |  | EC50 | >10 µg/mL
CCC(=O)Oc1ccc(NC(=O)C2=C(C)OCCS2)cc1C(=O)OC(C)C | PYR-resistant (RT Y181C) | syncytia | CEM | RT-Y181C | EC50 | >10 µg/mL
[N-]=[N+]=NCCCCCCCCCCCC(=O)O | RF | cytopathic effect | CEM |  | EC50 | <4 µM
Nc1nc2c(ncn2CC(F)(F)C(F)(F)CO)c(=O)[nH]1 | LAI | RT activity | PBMC |  | EC50 | >100 µM
Nc1ncnc2c1ncn2[C@@H]1O[C@H](COP(=O)([O-])O)[C@@H](O)[C@H]1OP(=O)([O-])OC[C@H]1O[C@@H](n2cnc3c(N)ncnc32)[C@H](OP(=O)([O-])OC[C@@H]2C[C@@H](O)[C@H](n3cnc4c(N)ncnc43)O2)[C@@H]1O | IIIB | p24 | H9 |  | EC50 | >1 µM
O=c1[nH]c(=O)n([C@H]2C=C(CO)CO2)cc1Cl |  |  | MT-4 |  | EC50 | >100 µg/mL
O=C1Nc2ccc(F)c(F)c2[C@@](/C=C/C2CC2)(C(F)(F)F)N1 |  |  |  |  | EC90 | 0.0019 µM
O=c1[nH]c(=O)n(Cc2cn(COCCO)nn2)cc1Cl | IIIB | cytopathic effect | MT-4 |  | EC50 | >100 µg/mL
Nc1ccn([C@H]2CC[C@@H](CO)O2)c(=O)n1 | NL4-3 | β-galactosidase |  | V37A V59I S100K S115N R138S D139N A310T | EC50 | 0.399 µM
CC1=C(C(=O)Nc2ccc(Cl)c(C(=O)OC(C)C)c2)SCCO1 | IIIB | syncytia | CEM |  | EC50 | 0.015 µg/mL
CC(C)C1=C2[C@H]3CC[C@@H]4[C@@]5(C)CC[C@H](OC(=O)[C@H]6C[C@@H](C(=O)O)C6(C)C)C(C)(C)[C@@H]5CC[C@@]4(C)[C@]3(C)CC[C@@]2([C@@H](O)CNCc2ccc(Cl)cc2OCCN2CCOCC2)CC1=O | 92HT599 | p24 / ELISA | MT-2 |  | EC50 | <1 µM
CC(C)OC(=O)[C@H](C)NP(=O)(OCC(F)(F)C(F)(F)C(F)(F)Cn1cnc2c(=O)[nH]c(N)nc21)Oc1ccccc1 | LAI | RT activity | PBMC |  | EC50 | >100 µM
O=c1ccn([C@H]2C=C(CO)CS2)c(=O)[nH]1 |  |  | MT-4 |  | EC50 | >100 µg/mL
C#CCn1cc(C)c(=O)[nH]c1=O | IIIB | cytopathic effect | MT-4 |  | EC50 | >100 µg/mL
O=C(O)CCCCCCCCCCCn1cnnn1 | RF | cytopathic effect | CEM |  | EC50 | <10 µg/mL
C=C(C)C#Cc1ccc(-c2ccc(Cl)c3c(NS(C)(=O)=O)nn(CC(F)(F)F)c23)c([C@H](Cc2cc(F)cc(F)c2)NC(=O)Cn2nc(C(F)(F)F)c3c2C(F)(F)[C@@H]2C[C@H]32)n1 | IIIB | luminescence |  |  | EC50 | 0.021 µM
CC(C)C1=C2[C@H]3CC[C@@H]4[C@@]5(C)CC[C@H](OC(=O)[C@H]6C[C@@H](C(=O)O)C6(C)C)C(C)(C)[C@@H]5CC[C@@]4(C)[C@]3(C)CC[C@@]2(CCNC(=O)c2ccccc2Cl)CC1=O | 92HT599 | p24 / ELISA | MT-2 |  | EC50 | <1 µM
O=c1[nH]c(=O)n(Cc2cn(COCCO)nn2)cc1Br | IIIB | cytopathic effect | MT-4 |  | EC50 | >100 µg/mL
CC1=C(C(=O)Nc2ccc(Cl)c(C(=O)OC3CCCCC3C)c2)SCCO1 | Nevirapine-resistant (RT V106A) | syncytia | CEM | RT-V106A | EC50 | 0.6 µg/mL
Nc1ncnc2c1ncn2CC(F)(F)C(F)(F)CO | LAI | RT activity | PBMC |  | EC50 | >100 µM
Nc1nc(N)c2nn(C[C@@H](CF)OCP(=O)(O)O)nc2n1 | IIIB | syncytia | CEM |  | EC50 | 50 µg/mL
CC1=C(C(=O)Nc2cc(C(=O)OC(C)C)c(Cl)cc2F)SCCO1 | Nevirapine-resistant (RT V106A) | syncytia | CEM | RT-V106A | EC50 | >10 µg/mL
Cc1cn([C@H]2C=C(CO)CO2)c(=O)[nH]c1=O |  |  | MT-4 |  | EC50 | >100 µg/mL
Cc1cccc(C(=O)NC(C)(C)CNC(=O)C[C@@]23CC[C@]4(C)[C@H](CC[C@@H]5[C@@]6(C)CC[C@H](OC(=O)[C@H]7C[C@@H](C(=O)O)C7(C)C)C(C)(C)[C@@H]6CC[C@]54C)C2=C(C(C)C)C(=O)C3)n1 | 92HT599 | p24 / ELISA | MT-2 |  | EC50 | <1 µM
CC1=C(C(=O)Nc2ccc(C)c(C(=O)OC(C)C)c2)SCCO1 | TSAO-resistant (RT E138K) | syncytia | CEM | RT-E138K | EC50 | 8.5 µg/mL

ECn: concentration that inhibits the pathogen or its effect by n%. Conditions beyond the fields shown may differ between rows. Blank or dashed fields: not listed here.